{"source": "patent US9422333B2", "about": "“HCV protease inhibitors and uses thereof” (Celgene Avilomics Research, Inc., priority 2008, dated 2016)", "experiment_in_all_cases": "HCV protease FRET assay for WT and mutated NS3/4A 1b enzymes (IC50_APP)", "type_in_all_cases": "biochemical", "settings_in_all_cases": "no pre-incubation, read-out: IC50_APP (apparent IC50)", "key": {"[1]": {"target": "HCV NS3/4A 1b protease A156T mutant (Hepatitis C virus genotype 1b, UniProt P26663, A1182T)"}, "[2]": {"target": "HCV NS3/4A 1b protease A156S mutant (Hepatitis C virus genotype 1b (isolate BK) (HCV), UniProt P26663, A1182S)"}, "[3]": {"target": "HCV NS3/4A 1b protease D168A mutant (Hepatitis C virus genotype 1b (isolate BK) (HCV), UniProt P26663, D1194A)"}}}
{"smiles": "C=CC(=O)NC[C@H](NC(=O)[C@@H](NC(=O)c1cnccn1)C1CCCCC1)C(=O)N1C[C@@H]2CCC[C@@H]2[C@H]1C(=O)N[C@@H](CCC)C(OC(=O)C(F)(F)F)C(=O)NC1CC1", "note": "(stereo in doubt) [Compound I-23, (S)-3-((1S,3aR,6aS)-2-((S)-3-acrylamido-2-((S)-2-cyclohexyl-2-(pyrazine-2-carboxamido)acetamido)propanoyl)octahydrocyclopenta[c]pyrrole-1-carboxamido)-1-(cyclopropylamino)-1-oxohexan-2-yl 2,2,2-trifluoroacetate]", "values": [{"measurement": "IC50", "setting": "[1]", "result": 985, "unit": "nM"}, {"measurement": "IC50", "setting": "[2]", "result": 412, "unit": "nM"}, {"measurement": "IC50", "setting": "[3]", "result": 508, "unit": "nM"}]}
